Results of unrelated studies side by side (data: NIAID ChemDB).

Common to all: whole-cell or culture tests; agent: Candida albicans; read by: agar diffusion; measure: zone

Blank or dashed fields: not listed here. Zones are inhibition diameters on agar. Lines come from different laboratories, so protocols vary.

compound	strain or isolate	dose	value
CC(=O)Nc1nc(C)c(-c2n[nH]c(=S)n2N2C(=O)CSC2c2ccc(C)cc2)s1		100 µg/mL	25 mm
FC(F)(F)c1cc(CSc2nnc(C34CC5CC(CC(C5)C3)C4)n2-c2ccccc2)cc(C(F)(F)F)c1	IFO 0583	200 µg/disc	13 mm
O=[N+]([O-])c1ccc(-c2cn3nc([N+](=O)[O-])sc3n2)cc1		75 µg/mL	0 mm
CN(C)CCn1nc(C23CC4CC(CC(C4)C2)C3)n(C)c1=S	IFO 0583	200 µg/disc	<10 mm
C[C@@H]1[C@@H](COCC(=O)O)C[C@@H](O[C@H]2[C@H](O)[C@@H](N(Cc3ccc(Br)cc3)CC(O)C[N+](C)(C)C)[C@H](O[C@H]3[C@H](O)[C@@H](N(Cc4ccc(Br)cc4)CC(O)C[N+](C)(C)C)[C@H](C)O[C@@H]3COCC(=O)O)O[C@@H]2COCC(=O)O)[C@H](N(Cc2ccc(Br)cc2)CC(O)C[N+](C)(C)C)[C@H]1O	RCMB 05031	1 mg/mL	18.2 mm
Cc1ccccc1Nc1ccc(Nc2c(Cl)c(Cl)c(C#N)c(Cl)c2C#N)c2nc[nH]c(=O)c12	ATCC 10231	1000 µg/mL	0 mm
CCOC(=O)C1CCN(Cn2nc(C34CC5CC(CC(C5)C3)C4)n(/N=C/c3ccc(Cl)cc3Cl)c2=S)CC1	IFO 3007	200 µg/disc	<10 mm
C[C@H]1[C@H](O)[C@@H](C)/C=C/C=C/C=C/C=C/C=C/C=C/C=C/[C@H](O[C@@H]2O[C@H](C)[C@@H](O)[C@H](N)[C@@H]2O)C[C@@H]2O[C@](O)(C[C@@H](O)C[C@@H](O)CC[C@H](O)[C@@H](O)C[C@@H](O)CC(=O)O[C@H]1C)C[C@H](O)[C@H]2C(=O)O	RCMB 05031	1 mg/mL	25.4 mm
O=[N+]([O-])c1nn2cc(-c3ccc(Cl)cc3)nc2s1		75 µg/mL	0 mm
CC(=O)Nc1nc(C)c(-c2n[nH]c(=S)n2N2C(=O)CSC2c2ccccc2[N+](=O)[O-])s1		100 µg/mL	7 mm
C[C@@H]1[C@@H](COCC(=O)O)C[C@@H](O[C@H]2[C@H](O)[C@@H](N(Cc3ccc(Cl)cc3Cl)CC(O)C[N+](C)(C)C)[C@H](O[C@H]3[C@H](O)[C@@H](N(Cc4ccc(Cl)cc4Cl)CC(O)C[N+](C)(C)C)[C@H](C)O[C@@H]3COCC(=O)O)O[C@@H]2COCC(=O)O)[C@H](N(Cc2ccc(Cl)cc2Cl)CC(O)C[N+](C)(C)C)[C@H]1O	RCMB 05031	1 mg/mL	18 mm
O=C1CCCC2=C1C(c1ccc(C3C4=C(CCCC4=O)OC4=C3C(=O)CCC4)cc1)C1=C(CCCC1=O)O2	ATCC 10231	40 µg/disc	8 mm
CC(=O)Nc1nc(C)c(-c2n[nH]c(=S)n2N2C(=O)CSC2c2ccc(O)cc2)s1		100 µg/mL	23 mm
Nc1ccc(Nc2cccc(Cl)c2)c2c(=O)[nH]cnc12	ATCC 10231	1000 µg/mL	0 mm
O=[N+]([O-])c1nn2cc(-c3ccc(Br)cc3)nc2s1		75 µg/mL	0 mm
CC1(C)CC(=O)C2=C(C1)OC1=C(C(=O)CC(C)(C)C1)C2c1cccc(C2C3=C(CC(C)(C)CC3=O)OC3=C2C(=O)CC(C)(C)C3)c1	ATCC 10231	140 µg/disc	7 mm
CC(=O)Nc1nc(C)c(-c2n[nH]c(=S)n2N2C(=O)CSC2c2ccc(Cl)cc2)s1		100 µg/mL	24 mm
O=[N+]([O-])c1nn2cc(-c3ccc(F)cc3)nc2s1		50 µg/mL	22 mm
Oc1ccc(/C=N/n2c(C34CC5CC(CC(C5)C3)C4)n[nH]c2=S)cc1	IFO 3007	200 µg/disc	<10 mm
Cc1ccc(-c2cn3nc(Cl)sc3n2)cc1		75 µg/mL	0 mm
Cn1c(C23CC4CC(CC(C4)C2)C3)nn(CCN2CCCCC2)c1=S	IFO 0583	200 µg/disc	<10 mm
O=C1CC(c2ccccc2)CC2=C1C(c1ccc(C3C4=C(CC(c5ccccc5)CC4=O)OC4=C3C(=O)CC(c3ccccc3)C4)cc1)C1=C(CC(c3ccccc3)CC1=O)O2	ATCC 10231	40 µg/disc	8 mm
CCN(CC)c1ccc(Nc2c(Cl)c(Cl)c(C#N)c(Cl)c2C#N)c2nc[nH]c(=O)c12	ATCC 10231	1000 µg/mL	0 mm
Cc1ccc(CN(CC(O)C[N+](C)(C)C)[C@@H]2[C@@H](O)[C@H](O[C@@H]3O[C@H](COCC(=O)O)[C@@H](O[C@@H]4C[C@H](COCC(=O)O)[C@@H](C)[C@H](O)[C@H]4N(Cc4ccc(C)cc4)CC(O)C[N+](C)(C)C)[C@H](O)[C@H]3N(Cc3ccc(C)cc3)CC(O)C[N+](C)(C)C)[C@@H](COCC(=O)O)O[C@H]2C)cc1	RCMB 05031	1 mg/mL	12.3 mm
CN(C)c1ccc(N)c2nc[nH]c(=O)c12	ATCC 10231	1000 µg/mL	0 mm
Cc1ccc(/C=N/n2c(C34CC5CC(CC(C5)C3)C4)n[nH]c2=S)cc1	IFO 3007	200 µg/disc	<10 mm
O=C1CC(c2ccccc2)CC2=C1C(c1cccc(C3C4=C(CC(c5ccccc5)CC4=O)OC4=C3C(=O)CC(c3ccccc3)C4)c1)C1=C(CC(c3ccccc3)CC1=O)O2	ATCC 10231	40 µg/disc	8 mm
Cc1ccccc1Nc1ccc(Nc2c(Cl)c(F)c(C#N)c(F)c2C#N)c2nc[nH]c(=O)c12	ATCC 10231	1000 µg/mL	6 mm
O=C(O)CSc1nnc(C23CC4CC(CC(C4)C2)C3)n1-c1ccccc1	IFO 0583	200 µg/disc	12 mm

Again, the opening 3 rows:

CC(=O)Nc1nc(C)c(-c2n[nH]c(=S)n2N2C(=O)CSC2c2ccc(C)cc2)s1 ; dose: 100 µg/mL ; value: 25 mm
FC(F)(F)c1cc(CSc2nnc(C34CC5CC(CC(C5)C3)C4)n2-c2ccccc2)cc(C(F)(F)F)c1 ; strain or isolate: IFO 0583 ; dose: 200 µg/disc ; value: 13 mm
O=[N+]([O-])c1ccc(-c2cn3nc([N+](=O)[O-])sc3n2)cc1 ; dose: 75 µg/mL ; value: 0 mm